Assay results reported in publication PMC4133253.
For at least one entry, the source does not settle the construct or the ends of the probe.

Key:
[1] = test system: GST-6xHis-VP19C (Herpes simplex virus type 1 strain KOS); test: competition with a labelled probe; details: 50-fold excess unlabeled DNA reduces the complex; recombinant protein; residues 1-465; protein details: N-terminal GST-6xHis; label: 5'-32P
[2] = test system: GST-6xHis-VP19C (Herpes simplex virus type 1 strain KOS); test: EMSA; details: 1.5 and 3 ug protein, 1.5 ng probe; recombinant protein; residues 1-465; protein details: N-terminal GST-6xHis; label: 5'-32P

## CCCCCCACCACACGCGATACTGCAGGGCAGACGCTGTGGTTGCTTGGCCTGGACGGCACAGACGCG (double strand) [66mer dsDNA]
[1]
  binding result: binds
[2]
  binding result: binds
